In brackets after ≈: the same amount, converted by molar mass. Several values for one entry are separate records, joined by “and”; a condition that tells them apart may be missing. Equal entries are not always repeated.
What was measured:
[1] = tested on: P. aeruginosa; assay: Anti-microbial activity (MBC) under aerobic and anaerobic growth conditions, 21 strains; conditions: out of 21 strains tested; two could not be grown anaerobically
[2] = tested on: P. aeruginosa biofilms; conditions: exposure 18-24 h
[3] = tested on: P. aeruginosa (PAK); assay: Time-kill study at different pH conditions
[4] = tested on: P. aeruginosa; assay: MIC/MBC assays, CLSI method; format: cell-based, Pseudomonas aeruginosa
[5] = tested on: P. aeruginosa; assay: Time kill assay in PBS or CAMHB
[6] = tested on: Staphylococcus aureus; assay: MIC/MBC assays, CLSI method; format: cell-based
[7] = tested on: Mycobacterium abscessus; assay: MIC/MBC assays, CLSI method; format: cell-based
[8] = tested on: Haemophilus influenzae; assay: MIC/MBC assays, CLSI method; conditions: N0097; Chloramphenicol-R, Tet-R, and Amp-R
[9] = tested on: Burkholderia conocepacia; assay: MIC/MBC assays, CLSI method; conditions: N0034; Clinical isolate
[10] = tested on: Escherichia coli; assay: MIC/MBC assays, CLSI method; conditions: N0077; Carb-R; 3rd-gen ceph-R; ESBL+, MDR
[11] = tested on: Streptococcus pyogenes; assay: MIC/MBC assays, CLSI method; conditions: N0098; Erythromycin-resistant
[12] = tested on: Acinetobacter baumannii; assay: MIC/MBC assays, CLSI method; conditions: N0075; Carb-R, XDR; Gram-negative
[13] = P. aeruginosa N0049, PAK, lab strain, Table 10, unit not given
[14] = Pseudomonas aeruginosa ATCC 19143
[15] = phenotype ATCC, obligate aerobe
[16] = phenotype Not MDR, CarbS, TobraS. Mucoid
[17] = phenotype PAK WT, batch VT-20-110
[18] = phenotype XDR, TobraR, CarbR. (strain of row r19)
[19] = phenotype XDR, TobraR, CarbR. (strain of row r21)
[20] = phenotype XDR, TobraR, CarbR. (strain of row r23)
[21] = S. aureus N0040, MRSA, clinical isolate, Table 10, unit not given
[22] = Staphylococcus aureus(MRSA) N0040, Clinical isolate, MDR, MRSA, Vanco-S
[23] = Staphylococcus aureus(MSSA) N0007, Wichita, ATCC 29213
[24] = M. abscessus N0010, clinical isolate, replicates 1 and 2
[25] = M. abscessus N0010, clinical, Table 14, unit not given
[26] = M. abscessus N0016, clinical isolate, replicates 1 and 2
[27] = M. abscessus N0016, clinical, Table 14, unit not given
[28] = M. abscessus N0017, clinical isolate, replicates 1 and 2, listed as VT-20-110, sodium salt
[29] = M. abscessus N0017, clinical, Table 14, unit not given
[30] = M. abscessus N0018, clinical isolate, replicates 1 and 2
[31] = M. abscessus N0018, clinical, Table 14, unit not given
[32] = M. abscessus N0019, clinical isolate, replicates 1 and 2
[33] = M. abscessus N0019, clinical, Table 14, unit not given
[34] = M. abscessus N0020, clinical isolate, replicates 1 and 2
[35] = M. abscessus N0020, clinical, Table 14, unit not given
[36] = M. abscessus N0046, Table 14, unit not given
[37] = N0019, Clinical isolate (Table 9)

## [O-]/[N+](=N\O)C(/[N+]([O-])=N/O)/[N+]([O-])=N/O
[1]
  number of strains with identical activity under aerobic and anaerobic growth conditions: 18
[2]
  concentration sufficient to eradicate bacteria biofilms (>3-log reduction): 0.391 mg/ml
[3]; 0.03125 mg/ml, pH 6.4, from 10^6, in three hours, stayed up to 25 hours (FIG. 14)
  concentration of PAK after treatment: 10^2 CFU/ml
[3]; 0.03125 mg/ml, pH 7.4, from 10^6, in eight hours, stayed up to 25 hours (FIG. 14)
  concentration of PAK after treatment: 10^2 CFU/ml
[3]; 0.03125 mg/ml, pH 8.4 (FIG. 14)
  reduction of the concentration of PAK: insufficient to significantly reduce
[3]; 0.0625 mg/ml, pH 6.4, from 10^6, in two hours, stayed up to 25 hours (FIG. 13)
  concentration of PAK after treatment: 10^2 CFU/ml
[3]; 0.125 mg/ml, pH 6.4, from 10^6, in two hours, stayed up to 25 hours (FIG. 12)
  concentration of PAK after treatment: 10^2 CFU/ml
[3]; 0.125 mg/ml, pH 7.4, from 10^6, in four hours, stayed up to 25 hours (FIG. 12)
  concentration of PAK after treatment: 10^2 CFU/ml
[3]; 0.125 mg/ml, pH 8.4, from 10^6, in six hours, stayed up to 25 hours (FIG. 12)
  concentration of PAK after treatment: 10^5 CFU/ml
[3]; FIG. 13, printed dosage 0.125 mg/ml, pH 7.4, from 10^6, in six hours, stayed up to 25 hours
  concentration of PAK after treatment: 10^2 CFU/ml
[3]; FIG. 13, printed dosage 0.125 mg/ml, pH 8.4, 25 hours
  concentration of PAK at 25 hours: 10^6 CFU/ml
[3]; FIG. 13, printed dosage 0.125 mg/ml, pH 8.4, from 10^6, in eight hours
  concentration of PAK after treatment: 10^5 CFU/ml
[3]; pH 6.4, 7.6, 8.4
  dependence of efficacy on pH: pH-dependent
[4]; N0049, PAK WT (Table 9)
  MBC, rep 1: 0.125 mg/mL (≈ 637 µM)
  MBC, rep 2: 0.125 mg/mL (≈ 637 µM)
  MIC, rep 1: 0.125 mg/mL (≈ 637 µM)
  MIC, rep 2: 0.0625 mg/mL (≈ 319 µM)
[4]; P. aeruginosa
  MBC lower than the MBC of MD3 NO-lib (fold): 64 ×
[4]; [13]
  MBC, rep 1: 0.125
  MBC, rep 2: 0.125
  MIC, rep 1: 0.125
  MIC, rep 2: 0.0625
[4]; [14]
  MBC: 98 µg/mL (≈ 500 µM)
  MIC: 49 µg/mL (≈ 250 µM)
[4]; Pseudomonas aeruginosa ATCC 19143, listed as NCT-19-096, sodium salt
  MBC: 49 µg/mL
[4]; all 9 strains tested (Table 7)
  concentration resulting in a 3-log reduction of bacteria (MBC): 0.125 mg/ml
[4]; [15]
  MBC, rep 1: 0.125 mg/mL (≈ 637 µM)
  MBC, rep 2: 0.125 mg/mL (≈ 637 µM)
  MIC, rep 1: 0.063 mg/mL (≈ 321 µM)
  MIC, rep 2: 0.063 mg/mL (≈ 321 µM)
[4]; phenotype MDR, CarbR, TobraR.
  MBC, rep 1: 0.125 mg/mL (≈ 637 µM)
  MBC, rep 2: 0.125 mg/mL (≈ 637 µM)
  MIC, rep 1: 0.063 mg/mL (≈ 321 µM)
  MIC, rep 2: 0.125 mg/mL (≈ 637 µM)
[4]; [16]
  MBC, rep 1: 0.125 mg/mL (≈ 637 µM)
  MBC, rep 2: 0.125 mg/mL (≈ 637 µM)
  MIC, rep 1: 0.063 mg/mL (≈ 321 µM)
  MIC, rep 2: 0.063 mg/mL (≈ 321 µM)
[4]; [17]
  MBC, rep 1: 0.125 mg/mL (≈ 637 µM)
  MBC, rep 2: 0.125 mg/mL (≈ 637 µM)
  MIC, rep 1: 0.125 mg/mL (≈ 637 µM)
  MIC, rep 2: 0.0625 mg/mL (≈ 319 µM)
[4]; phenotype XDR, CarbR, TobraI.
  MBC, rep 1: 0.125 mg/mL (≈ 637 µM)
  MBC, rep 2: 0.125 mg/mL (≈ 637 µM)
  MIC, rep 1: 0.063 mg/mL (≈ 321 µM)
  MIC, rep 2: 0.063 mg/mL (≈ 321 µM)
[4]; phenotype XDR, CarbR, TobraR.
  MBC, rep 1: 0.125 mg/mL (≈ 637 µM)
  MBC, rep 2: 0.125 mg/mL (≈ 637 µM)
  MIC, rep 1: 0.063 mg/mL (≈ 321 µM)
  MIC, rep 2: 0.063 mg/mL (≈ 321 µM)
[4]; [18]
  MBC, rep 1: 0.125 mg/mL (≈ 637 µM)
  MBC, rep 2: 0.125 mg/mL (≈ 637 µM)
  MIC, rep 1: 0.063 mg/mL (≈ 321 µM)
  MIC, rep 2: 0.063 mg/mL (≈ 321 µM)
[4]; [19]
  MBC, rep 1: 0.125 mg/mL (≈ 637 µM)
  MBC, rep 2: 0.125 mg/mL (≈ 637 µM)
  MIC, rep 1: 0.063 mg/mL (≈ 321 µM)
  MIC, rep 2: 0.063 mg/mL (≈ 321 µM)
[4]; [20]
  MBC, rep 1: 0.125 mg/mL (≈ 637 µM)
  MBC, rep 2: 0.125 mg/mL (≈ 637 µM)
  MIC, rep 1: 0.125 mg/mL (≈ 637 µM)
  MIC, rep 2: 0.063 mg/mL (≈ 321 µM)
[5]; CAMHB, all doses greater than or equal to 0.125 mg/ml
  time to kill all bacteria: ≤ 8 h
[5]; CAMHB, survivors at 8 hours regrew by 24 hours
  kill of bacteria at the lowest two doses evaluated: insufficient to kill all the bacteria
[5]; PBS and CAMHB, 37° C.
  eradication of bacteria: eradicated bacteria in a dose- and time-dependent manner
[5]; PBS buffer system, all concentrations of MD3 used
  bacteria titers: below the limit of detection
[6]; S. aureus
  MBC lower than the MBC of the NO-liberated degradation products (fold): 16 ×
[6]; [21]
  MBC, rep 1: 0.25
  MBC, rep 2: 0.25
  MIC, rep 1: 0.125
  MIC, rep 2: 0.125
[6]; [22]
  MBC, rep 1: 0.25 mg/mL (≈ 1270 µM)
  MBC, rep 2: 0.25 mg/mL (≈ 1270 µM)
  MIC, rep 1: 0.125 mg/mL (≈ 637 µM)
  MIC, rep 2: 0.125 mg/mL (≈ 637 µM)
[6]; [23]
  MBC, rep 1: 0.125 mg/mL (≈ 637 µM)
  MBC, rep 2: 0.125 mg/mL (≈ 637 µM)
  MIC, rep 1: 0.125 mg/mL (≈ 637 µM)
  MIC, rep 2: 0.125 mg/mL (≈ 637 µM)
[7]; [24]
  MBC: 1 mg/mL (≈ 5100 µM)
  MIC: 0.25 mg/mL (≈ 1270 µM)
[7]; [25]
  MBC: 1
  MIC: 0.25
[7]; [26]
  MBC: 1 mg/mL (≈ 5100 µM)
  MIC: 0.25 mg/mL (≈ 1270 µM)
[7]; [27]
  MBC: 1
  MIC: 0.25
[7]; [28]
  MBC: 2 mg/mL and 1 mg/mL
  MIC: 0.5 mg/mL and 0.25 mg/mL
[7]; [29]
  MBC: 1
  MIC: 0.25
[7]; [30]
  MBC: 1 mg/mL (≈ 5100 µM)
  MIC: 0.25 mg/mL (≈ 1270 µM)
[7]; [31]
  MBC: 1
  MIC: 0.25
[7]; [32]
  MBC: 1 mg/mL (≈ 5100 µM)
  MIC: 0.25 mg/mL (≈ 1270 µM)
[7]; [33]
  MBC: 1
  MIC: 0.25
[7]; [34]
  MB: 1 mg/mL
  MIC: 0.25 mg/mL (≈ 1270 µM)
[7]; [35]
  MBC: 1
  MIC: 0.25
[7]; M. abscessus N0046, Ordway, replicates 1 and 2
  MBC: 1 mg/mL (≈ 5100 µM)
[7]; M. abscessus N0046, Ordway, replicates 1 and 2, listed as VT-20-110, sodium salt
  MIC: 0.5 mg/mL and 0.25 mg/mL
[7]; [36]
  MBC: 1
  MIC: 0.25
[7]; M. abscessus strains, Table 14
  effectiveness at killing bacteria relative to cis-DMP/NO: four times as effective
[7]; [37]
  MBC, rep 1: 1000 µg/mL (≈ 5100 µM)
  MBC, rep 2: 1000 µg/mL (≈ 5100 µM)
  MIC, rep 1: 250 µg/mL (≈ 1270 µM)
  MIC, rep 2: 250 µg/mL (≈ 1270 µM)
[7]; all 9 strains tested (Table 8)
  concentration resulting in a 3-log reduction of bacterial survival (MBC): 1 mg/ml
[8]
  MBC, rep 1: 125 µg/mL (≈ 637 µM)
  MBC, rep 2: 250 µg/mL (≈ 1270 µM)
  MIC, rep 1: 125 µg/mL (≈ 637 µM)
  MIC, rep 2: 125 µg/mL (≈ 637 µM)
[9]
  MBC, rep 1: 125 µg/mL (≈ 637 µM)
  MBC, rep 2: 125 µg/mL (≈ 637 µM)
  MIC, rep 1: 63 µg/mL (≈ 321 µM)
  MIC, rep 2: 63 µg/mL (≈ 321 µM)
[10]
  MBC, rep 1: 250 µg/mL (≈ 1270 µM)
  MBC, rep 2: 250 µg/mL (≈ 1270 µM)
  MIC, rep 1: 125 µg/mL (≈ 637 µM)
  MIC, rep 2: 125 µg/mL (≈ 637 µM)
[11]
  MBC, rep 1: 62.5 µg/mL (≈ 319 µM)
  MBC, rep 2: 125 µg/mL (≈ 637 µM)
  MIC, rep 1: 31.25 µg/mL (≈ 159 µM)
  MIC, rep 2: 31.25 µg/mL (≈ 159 µM)
[12]
  MBC, rep 1: 250 µg/mL (≈ 1270 µM)
  MBC, rep 2: 250 µg/mL (≈ 1270 µM)
  MIC, rep 1: 63 µg/mL (≈ 321 µM)
  MIC, rep 2: 63 µg/mL (≈ 321 µM)

From US20230337678A1, “NITRIC OXIDE-RELEASING ANTIBACTERIAL COMPOUNDS, FORMULATIONS, AND METHODS PERTAINING THERETO” (KNOW BIO, LLC, priority 2020, published 2023)
